Anti-infective test results gathered from many reports (values: NIAID ChemDB through PubChem).

Common to all: host cell toxicity; cells: MCF-7; read-out: CC50

An empty or dashed field is not shown. CCn is the concentration with n% toxicity to the cells. Rows are shuffled and stem from different studies.

compound | read by | result
C/C=C/c1ccc2c(c1)[C@H](C)[C@@H](c1ccc(O)cc1)O2 | sulforhodamine / absorbance | 37 µM
C=C[C@]1(C)C=C2C(=O)c3c(NC=O)cccc3C(C)(C)[C@H]2C[C@H]1O |  | >100 µM
CC(C)=CCC[C@@H](C)[C@@H]1CC[C@]2(C)C3=C(CC[C@@]12C)[C@@]1(C)CC[C@H](O)C(C)(C)[C@@H]1CC3 | sulforhodamine / absorbance | >50 µM
CC(C)C12C=C3CC[C@H]4[C@](C)(C(=O)O)CCC[C@]4(C)[C@]3(CC1)OO2 | absorbance | 28.4 µg/mL
O=C1c2c(O)cc(O)cc2O[C@@H](c2ccc(O)cc2)[C@@H]1c1c(O)cc(O)c2c(=O)cc(-c3ccc(O)c(O)c3)oc12 | sulforhodamine / absorbance | >50 µM
CO[C@H]1/C=C/O[C@@]2(C)Oc3c(C)c(O)c4c(O)c(c(/C=N/N5CCN(C)CC5)c(O)c4c3C2=O)NC(=O)/C(C)=C\C=C\[C@H](C)[C@H](O)[C@@H](C)[C@@H](O)[C@@H](C)[C@H](OC(C)=O)[C@@H]1C | MTT | >100 µg/mL
CC(=O)O[C@H]1C(=O)[C@@]2(C)[C@H]([C@H](OC(=O)c3ccccc3)[C@]3(O)C[C@H](OC(=O)[C@H](O)[C@@H](NC(=O)c4ccccc4)c4ccccc4)C(C)=C1C3(C)C)[C@]1(OC(C)=O)CO[C@@H]1C[C@@H]2O | MTT | 0.006 µM
C/C(=C\C=C\[C@@H](C)[C@H]1CC[C@@]2(C)C3CC[C@H]4C(C)(C)C(=O)CC[C@]4(C)[C@@]3(O)[C@@H](O)C[C@]12C)C(=O)O |  | >40 µM
Cc1cc(NS(=O)(=O)c2ccc(N3C(=O)CSC3c3ccc(F)cc3)cc2)no1 | MTT | >100 µg/mL
COC(=O)/C(C)=C/C=C/[C@@H](C)C1CC[C@@]2(C)[C@@H]3CC[C@H]4C(C)(C)C(=O)CC[C@]4(C)C3=CC[C@]12C |  | >40 µM
O=C1c2c(O)cc(O)cc2O[C@H](c2ccc(O)cc2)[C@H]1c1c(O)cc(O)c2c(=O)cc(-c3ccc(O)c(O)c3)oc12 | sulforhodamine / absorbance | >50 µM
C[C@H]1[C@H](O)[C@@H](C)/C=C/C=C/C=C/C=C/C=C/C=C/C=C/[C@H](O[C@@H]2O[C@H](C)[C@@H](O)[C@H](N)[C@@H]2O)C[C@@H]2O[C@](O)(C[C@@H](O)C[C@@H](O)CC[C@H](O)[C@@H](O)C[C@@H](O)CC(=O)O[C@H]1C)C[C@H](O)[C@H]2C(=O)O | MTT | 4.96 µg/mL
CC1Oc2cc(O)c3c(=O)c4ccc(O)c(O)c4oc3c2C1(C)C | sulforhodamine / absorbance | 2.13 µM
C/C(=C\C=C\[C@@H](C)C1CC[C@@]2(C)[C@@H]3CC[C@H]4C(C)(C)C(=O)CC[C@]4(C)[C@@]3(O)CC[C@]12C)C(=O)O |  | >40 µM
O=c1c2cc(O)c(O)cc2oc2cc(O)cc(O)c12 | sulforhodamine / absorbance | >50 µM
C#CCCC[C@@H]1OC(=O)CNC(=O)[C@H]([C@@H](C)CC)NC(=O)[C@@H]2CCCN2C(=O)[C@H](C(C)C)OC(=O)[C@H](Cc2ccccc2)N(C)C(=O)[C@H](C(C)C)NC(=O)C1(C)C | MTT | >100 µM